Results on one protein are retold here after patent US20110046044.

Series [1] addresses native human hemoglobin (Sigma-Aldrich), P69905.
Series [2] addresses human erythrocyte spectrin, P02549.

B1: unnamed (protein)
chain: NSPYVSNYDDVLKKYKPADAVVDNEKYDWREHNAVSEIKNQNLCGSCWAFGAVGAVESQYAIRKNQHVLISEQELVDCSDKNFGCFGGLASLAFDDMIDLGYLCSESDYPYVGFKPRKCEIKKCKEKYTIKSYVKIPEEKYKEAIQFLGPLTLGLTVNDDFYDYKEGIFSSECTEEPNHEVMIVGYGVEEMFNSESNASEKHYYYIIKNSWGENWGEKGFMRIETDELGLQKTNNMTEAYVPLLD
B1: in series [1], the “hemoglobin degradation, pH-dependent and time-lapse analyses” value is given as “the hemoglobinolytic activity of VX-4 was relatively weak”. In series [2], the “degradation in erythrocyte ghosts, western blot” value is listed as “the low activity with spectrin”.
